The results in this text go back to patent publication US20250179125A1 (University of Washington, priority 2021, published 2025).

Square brackets hold non-standard residues; d marks the D form. Peptide text beside a SMILES is read from it.

A short description of this data set: Peptide grafting to PDA-coated polypropylene plates (BCA assay). As to conditions: PDA-coated 96 well PP plates, same concentration.

In the case of `CSCC[C@H](NC(=O)[C@@H](CCCCN)NC(=O)[C@H](CC(C)C)NC(=O)[C@@H](CC(N)=O)NC(=O)[C@H](CCSC)NC(=O)[C@H](NC(=O)[C@H](Cc1c[nH]c2ccccc12)NC(=O)CNC(=O)[C@H](CO)NC(=O)[C@H](Cc1ccc(O)cc1)NC(=O)[C@H](CCC(=O)O)NC(=O)[C@H](CC(N)=O)NC(=O)[C@H](CCSC)NC(=O)[C@@H](Cc1c[nH]c2ccccc12)NC(=O)[C@H](CO)NC(=O)[C@@H](CC(C)C)NC(=O)[C@H](CC(N)=O)NC(=O)[C@@H](CCSC)NC(=O)[C@H](CCC(=O)O)NC(=O)CNC(=O)[C@H](CCCNC(=N)N)NC(C)=O)[C@H](C)O)C(=O)NCC(=O)N[C@@H](CCCNC(=N)N)C(N)=O` [AP90, Ac-RGEmNlSwMNEYSGWtMnLkMGR-NH2] (Ac-RGE[dM]N[dL]S[dW]MNEYSGW[dT]M[dN]L[dK]MGR-NH2), the coupling efficiency turned out to be 46%.
